B1: Eap: recombinant His-tagged staphylococcal envelope associated protein Eap (SEQ ID NO:4) purified from E. coli, vaccine antigen (protein, listed as Staphylococcus aureus)
chain: MKFKSLITTTLALGVLASTGANFNNNEASAAAKPLDKSSSSLHHGYSKVHVPYAITVNGTSQNILSSLTFNKNQNISYKDLEDRVKSVLKSDRGISDIDLRLSKQAKYTVYFKNGTKKVIDLKAGIYTADLINTSEIKAININVDTKKQVEDKKKDKANYQVPYTITVNGTSQNILSNLTFNKNQNISYKDLEDKVKSVLESNRGITDVDLRLSKQAKYTVNFKNGTKKVIDLKSGIYTANLINSSDIKSININVDTKKHIENKAKRNYQVPYSINLNGTSTNILSNLSFSNKPWTNYKNLTSQIKSVLKHDRGISEQDLKYAKKAYYTVYFKNGGKRILQLNSKNYTANLVHAKDVKRIEITVKTGTKAKADRYVPYTIAVNGTSTPILSDLKFTGDPRVGYKDISKKVKSVLKHDRGIGERELKYAKKATYTVHFKNGTKKVININSNISQLNLLYVQDIKKIDIDVKTGTKAKADSYVPYTIAVNGTSTPILSKLKISNKQLISYKYLNDKVKSVLKSERGISDLDLKFAKQAKYTVYFKNGKKQVVNLKSDIFTPNLFSAKDIKKIDIDVKQYTKSKKNK
modifications: His-tag
B2: Emp: recombinant His-tagged staphylococcal envelope associated protein Emp (SEQ ID NO:2) purified from E. coli, vaccine antigen (protein, listed as Staphylococcus aureus)
chain: MKKKLLVLTMSTLFATQIMNSNHAKASVTESVDKKFVVPESGINKIIPAYDEFKNSPKVNVSNLTDNKNFVASEDKLNKIADSSAASKIVDKNFVVPESKLGNIVPEYKEINNRVNVATNNPASQQVDKHFVAKGPEVNRFITQNKVNHHFITTQTHYKKVITSYKSTHVHKHVNHAKDSINKHFIVKPSESPRYTHPSQSLIIKHHFAVPGYHAHKFVTPGHASIKINHFCVVPQINSFKVIPPYGHNSHRMHVPSFQNNTTATHQNAKVNKAYDYKYFYSYKVVKGVKKYFSFSQSNGYKIGKPSLNIKNVNYQYAVPSYSPTHYVPEFKGSLPAPRV
modifications: His-tag

Tested on: S. aureus Newman
Assay: Eap, Emp vaccination, murine renal abscess model (FIG. 5)
Conditions: challenge 3×10^7 CFU S. aureus Newman, FIG. 5C; for protection against staphylococcal infection: P<0.05; for reduction in staphylococcal load: immunized with protein emulsified in CFA

Row | Molecule | protection against staphylococcal infection | reduction in staphylococcal load
1 | B1 | significant protection | two
2 | B2 | significant protection | 2.5 log
